Pooled drug test results. Numbers come from NIAID ChemDB, via PubChem.

All rows: target-level tests

ICn: concentration for n% inhibition.

CCOC(=O)C[C@@H](C1O[C@@H]2OC(C)(C)O[C@@H]2[C@H]1Oc1ccccc1)N(C(=O)Nc1ccc(Cl)cc1)C1CC1 ; protein: Alpha-glucosidase ; measure: inhibition ; tested at: 100 µM ; organism: Mycobacterium aurum ; value: 15.3%
COc1cc(-c2[nH]ccc2Cl)oc1C1=C2C=C3C=C2[C@H](C(C)C)[C@H]1CCCCCCCC3 ; protein: Protein tyrosine phosphatase A ; measure: IC50 ; organism: Mycobacterium tuberculosis ; value: >30 µM
CO[C@H]1CN(c2nc(-c3ncn(C)n3)c(C(=O)O)s2)CC[C@H]1NC(=O)c1[nH]c(C)c(Br)c1Cl ; protein: DNA gyrase holoenzyme ; measure: IC50 ; organism: Mycobacterium tuberculosis ; read by: gel ; strain: H37Rv ; value: <0.005 µM
COc1cc(C(=O)NS(=O)(=O)c2ccccc2C)ccc1Cc1cn(C)c2ccc(NC(=O)OC3CCCC3)cc12 ; protein: Lsr2 ; measure: IC50 ; organism: Mycobacterium tuberculosis ; read by: binding ; value: 64.55 µM
NNC(=O)c1ccncc1 ; protein: Alpha-ketoglutarate dehydrogenase ; measure: inhibition ; tested at: 1000 µM ; organism: Mycobacterium tuberculosis ; strain: H37Rv ; value: 0%
C/C(=C1\C=CC=N1)c1ccc(-c2[nH]ccc2Cl)o1 ; protein: Protein tyrosine phosphatase A ; measure: IC50 ; organism: Mycobacterium tuberculosis ; value: >30 µM
O=C(Nc1ccccc1)N1CCc2c(c(-c3ccccc3)nn2Cc2cn(-c3ccccc3[N+](=O)[O-])nn2)C1 ; protein: Pantothenate synthetase ; measure: IC50 ; organism: Mycobacterium tuberculosis ; read by: absorbance ; value: 4.94 µM
CCCCN1C(=O)N(c2ccc(F)cc2)C(=O)C[C@H]1C1OC2OC(C)(C)OC2[C@H]1OC ; protein: Alpha-glucosidase ; measure: inhibition ; tested at: 100 µM ; organism: Mycobacterium aurum ; value: 13.5%
NC(=O)c1cnccn1 ; protein: Fatty acid synthase I ; measure: IC50 ; organism: Mycobacterium smegmatis ; value: >2000 µg/mL
CCCCCCCCCCCC[C@@H]1OC(=O)[C@H](COCc2ccccc2)NC(=O)[C@H](C(C)O)NC(=O)[C@H](C(C)C)NC(=O)[C@@H]1C ; protein: Protein tyrosine phosphatase A ; measure: IC50 ; organism: Mycobacterium tuberculosis ; value: >30 µM
COc1cccc(OC)c1-c1cccc(C(=O)OCc2ccc3nc(N)nc(N)c3c2)c1 ; protein: Dihydrofolate reductase ; measure: IC50 ; organism: Mycobacterium avium ; value: 0.59 µM
CCCCCCCCCCCCN1C(=O)N(c2ccc(Cl)cc2)C(=O)C[C@H]1C1OC2OC(C)(C)OC2[C@H]1Oc1ccccc1 ; protein: Alpha-glucosidase ; measure: inhibition ; tested at: 100 µM ; organism: Mycobacterium aurum ; value: 41.4%
Cc1ccc(C)n1-c1ccc(C(=O)O)cc1O ; protein: Protein tyrosine phosphatase A ; measure: Ki ; organism: Mycobacterium tuberculosis ; value: 18 µM
O=C(Nc1ccccc1)N1CCc2c(c(-c3ccccc3)nn2Cc2cn(-c3ccc(F)c(Cl)c3)nn2)C1 ; protein: Pantothenate synthetase ; measure: IC50 ; organism: Mycobacterium tuberculosis ; read by: absorbance ; value: 6.43 µM
Nc1nc(N)c2cc(COC(=O)c3ccccc3-c3ccccc3)ccc2n1 ; protein: Dihydrofolate reductase ; measure: IC50 ; organism: Mycobacterium avium ; value: 0.32 µM
CO[C@H]1CN(c2nc(-c3ncn(CC4CC4)n3)c(C(=O)O)s2)CC[C@H]1NC(=O)c1[nH]c(C)c(Cl)c1Br ; protein: DNA gyrase holoenzyme ; measure: IC50 ; organism: Mycobacterium tuberculosis ; read by: gel ; strain: H37Rv ; value: <0.005 µM
O=C(O)[C@]1(O)C=C(c2ccc3ccoc3c2)[C@@H](O)[C@H](O)C1 ; protein: Type II dehydroquinase ; measure: IC50 ; organism: Mycobacterium tuberculosis ; value: 0.97 µM
O=c1[nH]c(=O)c2c([nH]1)n(C[C@H](O)[C@H](O)[C@H](O)CO)c(=O)n2CCCO ; protein: Lumazine synthase ; measure: Ki ; organism: Mycobacterium tuberculosis ; value: 2.6 µM
CCCCCCCCCCCC[C@H]1OC(=O)[C@H](COCc2ccccc2)NC(=O)[C@H](C(C)O)NC(=O)[C@H](C(C)C)NC(=O)[C@@H]1C ; protein: Protein tyrosine phosphatase A ; measure: IC50 ; organism: Mycobacterium tuberculosis ; value: >30 µM
CCCCCCCCCCCCN(C(=O)Nc1ccc(F)cc1)[C@@H](CC(=O)OCC)C1O[C@@H]2OC(C)(C)O[C@@H]2[C@H]1Oc1ccccc1 ; protein: Alpha-glucosidase ; measure: inhibition ; tested at: 100 µM ; organism: Mycobacterium aurum ; value: 20.9%
COc1ccc(-n2cc(Cn3nc(-c4ccccc4)c4c3CCN(C(=O)Nc3ccccc3)C4)nn2)cc1 ; protein: Pantothenate synthetase ; measure: IC50 ; organism: Mycobacterium tuberculosis ; read by: absorbance ; value: 1.01 µM
[2H]C([2H])([2H])OC(=O)N/C=C/CCCc1cc(O)c(C(=O)/C(C)=C/c2cnc(Oc3ccc(F)c(Cl)c3)s2)c(=O)o1 ; protein: RNA polymerase ; measure: IC50 ; organism: Mycobacterium tuberculosis ; read by: nucleotide incorporation / fluorescence ; value: 0.03 µM
O=C1NC(=O)C2C(N1)N(C[C@H](O)[C@H](O)[C@H](O)CO)C(=O)N2CCCCOP(=O)(O)O ; protein: Lumazine synthase ; measure: Ki ; organism: Mycobacterium tuberculosis ; value: 4.1 µM
CCCCCCCN(C(=O)NCc1ccccc1)[C@@H](CC(=O)OCC)C1O[C@@H]2OC(C)(C)O[C@@H]2[C@H]1OC ; protein: Alpha-glucosidase ; measure: inhibition ; tested at: 100 µM ; organism: Mycobacterium aurum ; value: 13.7%
Nc1nc(N)c2cc(COC(=O)c3cccc(I)c3)ccc2n1 ; protein: Dihydrofolate reductase ; measure: IC50 ; organism: Mycobacterium avium ; value: 0.05 µM
O=C(O)[C@]1(O)C=C(c2cn(Cc3ccccc3)nn2)[C@@H](O)[C@H](O)C1 ; protein: Type II dehydroquinase ; measure: IC50 ; organism: Mycobacterium tuberculosis ; value: 3.75 µM
CO[C@H]1/C=C/O[C@@]2(C)Oc3c(C)c(O)c4c(=O)c(c5oc6cc(N7CCN(CC(C)C)CC7)cc(=O)c6nc5c4c3=C2O)NC(=O)/C(C)=C\C=C\[C@H](C)[C@H](O)[C@@H](C)[C@@H](O)[C@@H](C)[C@H](OC(C)=O)[C@@H]1C ; protein: DNA polymerase ; measure: IC50 ; organism: Mycobacterium fortuitum ; strain: F-65 ; value: >10 µg/mL
CCCCN1C(=O)N(c2ccc(F)cc2)C(=O)C[C@H]1C1OC2OC(C)(C)OC2[C@H]1Oc1ccccc1 ; protein: Alpha-glucosidase ; measure: inhibition ; tested at: 100 µM ; organism: Mycobacterium aurum ; value: 17.3%
Nc1nc(N)c2cc(COC(=O)c3ccsc3)ccc2n1 ; protein: Dihydrofolate reductase ; measure: IC50 ; organism: Mycobacterium avium ; value: 0.18 µM
O=C(O)[C@]1(O)C=C(c2ccc3sccc3c2)[C@@H](O)[C@H](O)C1 ; protein: Type II dehydroquinase ; measure: IC50 ; organism: Mycobacterium tuberculosis ; value: 2.85 µM
CCCCCCCC/C=C\CCCCCCCCN1C(=O)N(c2ccccc2)C(=O)C[C@H]1C1OC2OC(C)(C)OC2[C@H]1OC ; protein: Alpha-glucosidase ; measure: inhibition ; tested at: 100 µM ; organism: Mycobacterium aurum ; value: 20.2%
CCO[C@H]1CN(c2nc(-c3ncn(C)n3)c(C(=O)O)s2)CC[C@H]1NC(=O)c1[nH]c(C)c(Cl)c1Br ; protein: DNA gyrase holoenzyme ; measure: IC50 ; organism: Mycobacterium tuberculosis ; read by: gel ; strain: H37Rv ; value: <0.005 µM
O=c1[nH]c(=O)c2c([nH]1)n(C[C@H](O)[C@H](O)[C@H](O)CO)c(=O)n2CCCCCP(=O)(O)O ; protein: Lumazine synthase ; measure: Ki ; organism: Mycobacterium tuberculosis ; value: 0.0047 µM
CCCCCCCCCCCCN(C(=O)NCc1ccccc1)[C@@H](CC(=O)OCC)C1O[C@@H]2OC(C)(C)O[C@@H]2[C@H]1Oc1ccccc1 ; protein: Alpha-glucosidase ; measure: inhibition ; tested at: 100 µM ; organism: Mycobacterium aurum ; value: 10.8%
CCCCCCCCCCCC[C@@H]1OC(=O)[C@H](COCc2ccccc2)NC(=O)[C@H](C(C)O)NC(=O)[C@H](C(C)C)NC(=O)[C@H]1C ; protein: Protein tyrosine phosphatase A ; measure: IC50 ; organism: Mycobacterium tuberculosis ; value: >30 µM
Nc1nc(N)c2cc(COC(=O)c3c4ccccc4cc4ccccc34)ccc2n1 ; protein: Dihydrofolate reductase ; measure: IC50 ; organism: Mycobacterium avium ; value: 1 µM

Inhibition is in % at the dose shown (toxicity tests: loss of growth or viability). Lines come from different laboratories, so protocols vary.